Anti-infective test results gathered from many reports (values: NIAID ChemDB through PubChem).

Shared fields: tests in culture

Blank or dashed fields: not listed here.

structure,organism,strain,cells,method,measure,tested at,result
N=c1ncn(Cc2ccco2)c2nc[nH]c12,Herpes simplex virus 1,-,BSC-1,plaque count,inhibition,50 µg/mL,0%
Nc1nc2c(ncn2COCCO)c(=O)[nH]1,Herpes simplex virus 2,16052 8708 (acyclovir-resistant),HFF,cytopathic effect,EC50,-,10 µg/mL
O=S(=O)([O-])c1cc(O)c2ccccc2c1,Herpes simplex virus,-,Human conjunctiva cells,cytopathic effect,inhibition,5 µg/mL,0%
Nc1nc2c(ncn2COC(CO)CO)c(=O)[nH]1,Herpes simplex virus 1,CL101,WI-38,plaque count,inhibition,200 µM,90%
CCn1cnc(=N)c2[nH]cnc21,Herpes simplex virus 1,-,BSC-1,plaque count,inhibition,6 µg/mL,0%
O=S(=O)([O-])c1cc(NS(=O)(=O)c2ccccc2)c2c(S(=O)(=O)[O-])cc(S(=O)(=O)[O-])cc2c1,Herpes simplex virus,-,Human amnion AV3 cells,cytopathic effect,inhibition,10 µg/mL,0%
Cn1cc(C(=O)NCc2ccc(Cl)cc2)c(=O)c2cc(CN3CCOCC3)ccc21,Herpes simplex virus 2,SR (WILD TYPE),HFF,plaque count,EC50,-,2.6 µM
O=S(=O)([O-])c1ccc(NS(=O)(=O)c2ccccc2)c2c(S(=O)(=O)[O-])cccc12,Herpes simplex virus,-,Human conjunctiva cells,cytopathic effect,inhibition,10 µg/mL,0%
O=C(NCc1ccc(Cl)cc1)c1cn2c3c(cc(CN4CCOCC4)cc3c1=O)OC(c1cccnc1)C2,Herpes simplex virus 2,L6250234 (WILD TYPE),HFF,plaque count,EC50,-,>16.2 µM
Cc1c(NC(=O)OC(C)(C)C)ccc2nc(N(CC(C)(C)C)C(=O)N(C)CCc3ccccn3)oc(=O)c12,Herpes simplex virus 1,-,VERO,plaque count,EC90,-,5.9 µM
O=S(=O)([O-])c1ccc2c(O)cc(S(=O)(=O)[O-])cc2c1,Herpes simplex virus,-,Human conjunctiva cells,cytopathic effect,inhibition,10 µg/mL,0%
Nc1ccn([C@@H]2O[C@H](CO)[C@@H](O)[C@@H]2O)c(=O)n1,Herpes simplex virus 1,-,-,-,MIC,-,1.1 µg/mL
Cc1c(NC(=O)OC(C)(C)C)ccc2nc(N3CCCC[C@H]3C(=O)NCc3ccccn3)oc(=O)c12,Herpes simplex virus 1,-,VERO,plaque count,EC90,-,>12.5 µM
Cc1ccc(Cn2cnc(=N)c3[nH]cnc32)cc1,Herpes simplex virus 1,-,BSC-1,plaque count,inhibition,50 µg/mL,0%
CCN(C(=O)N(C)CCc1ccccn1)c1nc2ccc(NC(=O)CCCNC(=O)OCc3ccccc3)c(C)c2c(=O)o1,Herpes simplex virus 1,-,VERO,plaque count,EC90,-,>12.5 µM
Cc1cc(-c2ccc(N=Nc3ccc4c(S(=O)(=O)O)cc(S(=O)(=O)O)c(N)c4c3O)c(C)c2)ccc1N=Nc1ccc2c(S(=O)(=O)O)cc(S(=O)(=O)O)c(N)c2c1O,Herpes simplex virus,-,Human conjunctiva cells,cytopathic effect,inhibition,50 µg/mL,100%
Cc1cc(C(=O)Nc2ccc3nc(NC(C)(C)C(=O)N(C)CCc4ccccn4)oc(=O)c3c2C)c(C(F)(F)F)o1,Herpes simplex virus 1,-,VERO,plaque count,EC90,-,>12.5 µM
O=S(=O)([O-])c1cc(S(=O)(=O)[O-])c2cc(NS(=O)(=O)c3ccccc3)ccc2c1,Herpes simplex virus,-,Human amnion AV3 cells,cytopathic effect,inhibition,50 µg/mL,10%
CCC(CC)C(=O)Nc1ccc2nc(NC(C)(C)C(=O)N(C)CCc3ccccn3)oc(=O)c2c1C,Herpes simplex virus 1,-,VERO,plaque count,EC90,-,12.5 µM
N=c1ncn(Cc2cccc([N+](=O)[O-])c2)c2nc[nH]c12,Herpes simplex virus 1,-,BSC-1,plaque count,inhibition,6 µg/mL,0%
O=S(=O)(O)c1cc(O)c2c(O)cc(S(=O)(=O)O)cc2c1,Herpes simplex virus,-,Human conjunctiva cells,cytopathic effect,inhibition,5 µg/mL,0%
CCN(C(=O)N(C)CCc1ccccn1)c1nc2ccc(NC(=O)CCCNC(=O)c3cccnc3)c(C)c2c(=O)o1,Herpes simplex virus 1,-,VERO,plaque count,EC90,-,>12.5 µM

2 of the rows above, restated:

Cc1c(NC(=O)OC(C)(C)C)ccc2nc(N(CC(C)(C)C)C(=O)N(C)CCc3ccccn3)oc(=O)c12 ; organism: Herpes simplex virus 1 ; cells: VERO ; method: plaque count ; measure: EC90 ; result: 5.9 µM
O=S(=O)([O-])c1cc(S(=O)(=O)[O-])c2cc(NS(=O)(=O)c3ccccc3)ccc2c1 ; organism: Herpes simplex virus ; cells: Human amnion AV3 cells ; method: cytopathic effect ; measure: inhibition ; tested at: 50 µg/mL ; result: 10%

ECn is the concentration giving n% inhibition of infection, replication or growth. Percent inhibition refers to the dose given; in toxicity tests it is the harm to the cells. Conditions beyond the fields shown may differ between rows.